Test results from ChEMBL document CHEMBL4819138, “Promising anti-SARS-CoV-2 drugs by effective dual targeting against the viral and host proteases” (Bioorg Med Chem Lett, 2021).

Tests used:
[1] = target: Replicase polyprotein 1ab (Severe acute respiratory syndrome coronavirus 2) (UniProt P0DTD1); experiment: Inhibition of SARS-CoV-2 main protease at 100 microg/ml relative to control; conditions: dose 100.0 µg/ml
[2] = target: Replicase polyprotein 1ab (Severe acute respiratory syndrome coronavirus 2) (UniProt P0DTD1); experiment: Inhibition of SARS-CoV-2 papain-like protease at 100 microg/ml relative to control; conditions: dose 100.0 µg/ml

Compound: N=C(N/N=C/c1ccccc1O)c1nonc1NCNc1nonc1C(=N)N/N=C/c1ccccc1O
- inhibition [1]: 69.8%
- inhibition [2]: 80%
